Anti-infective test results gathered from many reports (values: NIAID ChemDB through PubChem).

All rows: whole-cell or culture tests; agent: Human herpesvirus 6; endpoint: EC50

Conditions beyond the fields shown may differ between rows.

Nc1nc(N)c2ncn(CCOCP(=O)(O)O)c2n1 ; method: antigen / flow cytometry ; cell line: HSB-2 ; strain: GS ; result: 9.1 µM
Nc1nc(N)c2ncn(C[C@@H](CO)OCP(=O)(O)O)c2n1 ; method: cytopathic effect ; cell line: HSB-2 ; strain: U1102 (TYPE 6A) ; result: 9 µM
COC(=O)[C@H](C)NP(=O)(OC[C@H]1C/C1=C/n1cnc2c(=O)[nH]c(N)nc21)Oc1ccccc1 ; method: ELISA ; cell line: HSB-2 ; strain: GS ; result: 90 µM
Nc1ccn(C[C@@H](CO)OCP(=O)(O)O)c(=O)n1 ; cell line: Human cord blood lymphocytes ; result: 0.25 µM
Nc1ccn(C[C@@H](CO)OCP(=O)(O)O)c(=O)n1 ; method: cytopathic effect ; cell line: HSB-2 ; strain: GS ; result: 4.6 µg/mL
Nc1ccn(C[C@@H](CO)OCP(=O)(O)O)c(=O)n1 ; method: cytopathic effect ; cell line: HSB-2 ; strain: GS ; result: 14 µM
O=C(O)P(=O)(O)O ; method: ELISA ; cell line: HSB-2 ; result: 31 µM
Nc1ncnc2c1ncn2[C@@H]1O[C@H](CO)[C@@H](O)[C@@H]1O ; method: cytopathic effect ; cell line: HSB-2 ; strain: U1102 (TYPE 6A) ; result: >3.2 µM
Nc1nc(N)c2ncn(C[C@@H](CO)OCP(=O)(O)O)c2n1 ; method: antigen ; cell line: HSB-2 ; strain: GS ; result: 12.1 µg/mL
O=c1[nH]c(=O)n([C@@H]2O[C@H](CO)[C@@H](O)[C@@H]2O)cc1/C=C/Br ; method: antigen / flow cytometry ; cell line: HSB-2 ; strain: GS ; result: >75 µM
Nc1nc2c(ncn2CCOCP(=O)(O)O)c(=O)[nH]1 ; method: cytopathic effect ; cell line: HSB-2 ; strain: U1102 (TYPE 6A) ; result: 1.4 µM
Nc1nc2c(ncn2C[C@H]2COP(=O)(O)CO2)c(=O)[nH]1 ; method: antigen / flow cytometry ; cell line: HSB-2 ; strain: GS ; result: 10 µM
Nc1nc2c(ncn2C[C@]2(CO)C[C@H]2CO)c(=O)[nH]1 ; cell line: Human T-lymphoblasts ; result: 3.5 µM
Nc1ncnc2c1ncn2C[C@@H](CO)OCP(=O)(O)O ; method: cytopathic effect ; cell line: HSB-2 ; strain: U1102 (TYPE 6A) ; result: 25 µM
Nc1ncnc2c1ncn2C[C@@H](CF)OCP(=O)(O)O ; method: cytopathic effect ; cell line: HSB-2 ; strain: GS ; result: >300 µM
COC(=O)[C@H](C)NP(=O)(OC[C@H]1C/C1=C\n1cnc2c(=O)[nH]c(N)nc21)Oc1ccccc1 ; method: ELISA ; cell line: HSB-2 ; strain: GS ; result: >100 µM

For reference, 2 entries again:

SMILES	method	cell line	strain	result
Nc1ncnc2c1ncn2C[C@@H](CF)OCP(=O)(O)O	cytopathic effect	HSB-2	GS	>300 µM
O=C(O)P(=O)(O)O	ELISA	HSB-2	-	31 µM

Blank or dashed fields: not listed here. ECn: concentration that inhibits the pathogen or its effect by n%.